PubChem BioAssay AID624099, ICCB-Longwood | 2012

Aim: 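Host factors E2 relies on to silence an HPV18 LCR reporter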 (primary screen)
Cells: human C33A cervical carcinoma cells (HPV-negative) stably expressing BPV1 E2 and an HPV18 LCR luciferase reporter
Reagent: siRNA pool against human genes, 40 nM
Duration: 72 h
Read-out: 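Per-well luciferase luminescence, z-scored on each plate against the plate mean and SD with control wells left out, then averaged across three replicate plates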
Direction: mean z-score and z-score: higher = stronger reporter signal, weaker E2 silencing
Call rule: 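Mean z ≥ 2 together with z ≥ 2 in two or more of the three replicates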
The deposit covers about 21,000 reagents; this is a part drawn at random. 497 of them (2.4%) count as active. 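Higher z means weaker E2 silencing; only reporter increases were scored, and knock-downs that hurt cell survival may mask genuine repressor factors.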 Unmarked entries are inactive. Reagent sequences are not shown.

gene,mean z-score,"z-score, replicate A","z-score, replicate B","z-score, replicate C"
LOC653303 (proprotein convertase subtilisin/kexin type 7 pseudogene),0.91,0.91,0.73,1.08
LOC400047 (retired record),0.31,0.21,0.43,0.29
OR6K6 (olfactory receptor family 6 subfamily K member 6),0.14,-0.11,0.33,0.19
YIPF7 (Yip1 domain family member 7),-0.4,-0.3,-0.13,-0.78
RMND5A (required for meiotic nuclear division 5 homolog A),-0.31,-0.15,-0.87,0.08
OTOL1 (otolin 1),0.39,0.11,0.44,0.61
LOC389250 (retired record),-1,-0.3,-1.42,-1.27
ADGRA3 (adhesion G protein-coupled receptor A3),-1.45,-1.85,-1.32,-1.19
DNAH9 (dynein axonemal heavy chain 9),0.11,0.18,0.23,-0.07
"AFDN (afadin, adherens junction formation factor)",0.15,0.15,-0.06,0.37
ANP32B (acidic nuclear phosphoprotein 32 family member B),0.73,0.52,0.87,0.79
CCDC190 (coiled-coil domain containing 190),-0.11,-0.39,-0.02,0.07
"NBL1 (NBL1, DAN family BMP antagonist)",-0.1,-0.14,-0.06,-0.09
ANKRD10 (ankyrin repeat domain 10),0.32,0.34,0.23,0.38
ARMC5 (armadillo repeat containing 5),0.6,0.33,0.82,0.66
"LEKR1 (leucine, glutamate and lysine rich 1)",1.13,1.17,1.2,1.03
STAG3L1 (STAG3 cohesin complex component like 1 (pseudogene)),0.2,0.3,0.32,-0.01
HOXA2 (homeobox A2),0.58,0.76,0.45,0.53
BCL9 (BCL9 transcription coactivator),1.89,2.3,1.63,1.72
LCN15 (lipocalin 15),0.55,0.57,0.64,0.45
ETV4 (ETS variant transcription factor 4),1.58,2.14,1.61,0.98
S100A7A (S100 calcium binding protein A7A),-1.45,-1.62,-1.45,-1.28
TRAM1 (translocation associated membrane protein 1),-0.28,0.18,-0.37,-0.65
MEGF11 (multiple EGF like domains 11),0.14,0.44,-0.02,0
CEBPA (CCAAT enhancer binding protein alpha),-1.28,-1,-1.15,-1.68
LOC387931 (retired record),0.16,0.4,0.19,-0.12
ZNF524 (zinc finger protein 524),-0.88,-0.91,-0.41,-1.33
WASHC2A (WASH complex subunit 2A),0.15,0.57,-0.27,0.15
EMC9 (ER membrane protein complex subunit 9),0.06,-0.45,0.64,0.01
UFSP1 (UFM1 specific peptidase 1),-0.57,-0.27,-0.75,-0.7
LOC153297 (retired record),-0.35,-0.3,-0.13,-0.61
SLF2 (SMC5/6 complex localization factor 2),0.27,0.04,0.23,0.53
CLEC4E (C-type lectin domain family 4 member E),0.4,0.22,0.59,0.39
SYNM (synemin),1.21,0.73,0.99,1.89
GALK2 (galactokinase 2),0.29,0.33,0.1,0.44
OR5K1 (olfactory receptor family 5 subfamily K member 1),-0.08,-0.09,0.16,-0.31
CD2AP (CD2 associated protein),0.91,1.17,0.96,0.6
ANGPTL4 (angiopoietin like 4),1.12,1.02,0.98,1.36
EIF5 (eukaryotic translation initiation factor 5),0.24,0.15,0.25,0.3
CSRP3 (cysteine and glycine rich protein 3),-0.84,-1.05,-0.62,-0.85
PAH (phenylalanine hydroxylase),1.14,1.04,1.14,1.23
CD177 (CD177 molecule),0.63,0.93,0.46,0.52
LEF1 (lymphoid enhancer binding factor 1),1.91,2.22,1.8,1.73
CES1 (carboxylesterase 1),-0.53,-0.46,-0.54,-0.58
FAN1 (FANCD2 and FANCI associated nuclease 1),-0.1,0.02,-0.35,0.03
LOC148766 (retired record),0.66,0.6,0.77,0.6
LOC389295 (retired record),-1.41,-1.2,-1.59,-1.43
"ENDOU (endonuclease, poly(U) specific)",-0.5,-0.74,-0.55,-0.21
SAR1AP3 (secretion associated Ras related GTPase 1A pseudogene 3),-0.81,-0.82,-0.93,-0.69
TRIOBP (TRIO and F-actin binding protein),0.39,-0.01,0.65,0.52
H3C8 (H3 clustered histone 8),-0.77,-0.41,-0.72,-1.19
NFYC (nuclear transcription factor Y subunit gamma),-0.54,-0.42,-0.7,-0.51
CHN1 (chimerin 1),0.24,0.12,0.12,0.47
EIF4EBP1,-1.11,-0.88,-1.15,-1.31
GCNT1 (glucosaminyl (N-acetyl) transferase 1),-0.42,-0.38,-0.5,-0.38
GOLGA6L9 (golgin A6 family like 9),1.12,1.03,1.03,1.31
LOC401191,0.79,0.05,1.07,1.25

Copied from above, 5 entries:
gene,mean z-score,"z-score, replicate A","z-score, replicate B","z-score, replicate C"
CCDC190 (coiled-coil domain containing 190),-0.11,-0.39,-0.02,0.07
"NBL1 (NBL1, DAN family BMP antagonist)",-0.1,-0.14,-0.06,-0.09
ANKRD10 (ankyrin repeat domain 10),0.32,0.34,0.23,0.38
ARMC5 (armadillo repeat containing 5),0.6,0.33,0.82,0.66
"LEKR1 (leucine, glutamate and lysine rich 1)",1.13,1.17,1.2,1.03
